Target: biotinylated soluble human LDLR (sohLDLR) (human) (UniProt P01130)
Experiment: BLI

## monomeric Gc ectodomain of CCHFV YL16070 strain (domain or fragment)
  Kd: 32.6 nM
